PubChem BioAssay AID624099, ICCB-Longwood, 2012

Purpose: 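Human genes that papillomavirus E2 requires to repress the HPV18 LCR promoter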 (primary screen)
Cell system: human C33A cervical carcinoma cells (HPV-negative) stably expressing BPV1 E2 and an HPV18 LCR luciferase reporter
Reagent: siRNA pool against human genes, 40 nM
Duration: 72 h
Read-out: 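Per-well luciferase luminescence, z-scored on each plate against the plate mean and SD with control wells left out, then averaged across three replicate plates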
Reading the numbers: mean z-score and z-score: higher = stronger reporter signal, weaker E2 silencing
Call rule: 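Mean z ≥ 2 together with z ≥ 2 in two or more of the three replicates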
Shown is a random part of about 21,000 deposited reagents. 497 of all reagents (2.4%) were called active. 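Higher z means weaker E2 silencing; only reporter increases were scored, and knock-downs that hurt cell survival may mask genuine repressor factors.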

MEST | mean z-score: 1.11; z-score, replicate A: 0.14; z-score, replicate B: 0.67; z-score, replicate C: 2.52; activity call: inactive
SF3B3 | mean z-score: -2.71; z-score, replicate A: -2.66; z-score, replicate B: -2.73; z-score, replicate C: -2.74; activity call: inactive
KRT5 | mean z-score: -0.45; z-score, replicate A: -0.49; z-score, replicate B: -0.38; z-score, replicate C: -0.47; activity call: inactive
SCNN1A | mean z-score: -0.47; z-score, replicate A: -0.58; z-score, replicate B: -0.23; z-score, replicate C: -0.59; activity call: inactive
RHNO1 | mean z-score: -0.25; z-score, replicate A: -0.28; z-score, replicate B: -0.12; z-score, replicate C: -0.34; activity call: inactive
WDR87 | mean z-score: -0.58; z-score, replicate A: -0.55; z-score, replicate B: -0.92; z-score, replicate C: -0.27; activity call: inactive

Next part (2 carried over from the part before).
RHNO1 | mean z-score: -0.25; z-score, replicate A: -0.28; z-score, replicate B: -0.12; z-score, replicate C: -0.34; activity call: inactive
WDR87 | mean z-score: -0.58; z-score, replicate A: -0.55; z-score, replicate B: -0.92; z-score, replicate C: -0.27; activity call: inactive
ASH1L | mean z-score: -0.26; z-score, replicate A: -0.2; z-score, replicate B: -0.13; z-score, replicate C: -0.44; activity call: inactive
NEDD8 | mean z-score: -0.75; z-score, replicate A: -0.67; z-score, replicate B: -0.84; z-score, replicate C: -0.73; activity call: inactive
SLC8B1 | mean z-score: -0.45; z-score, replicate A: -0.52; z-score, replicate B: -0.33; z-score, replicate C: -0.5; activity call: inactive
ZNF136 | mean z-score: -0.34; z-score, replicate A: -0.13; z-score, replicate B: -0.38; z-score, replicate C: -0.51; activity call: inactive
ZNF665 | mean z-score: 1.15; z-score, replicate A: 0.91; z-score, replicate B: 1.52; z-score, replicate C: 1.01; activity call: inactive
AXIN2 | mean z-score: 0; z-score, replicate A: -0.34; z-score, replicate B: 0.27; z-score, replicate C: 0.09; activity call: inactive
ABT1 | mean z-score: -0.42; z-score, replicate A: -0.42; z-score, replicate B: -0.61; z-score, replicate C: -0.23; activity call: inactive
ADAMTS16 | mean z-score: -0.83; z-score, replicate A: -0.82; z-score, replicate B: -0.83; z-score, replicate C: -0.85; activity call: inactive
